The target in this data set is T1, SpoVG (nonphosphorylated) (UniProt Q7A7B5).
T1 sequence (looked up, limits assumed): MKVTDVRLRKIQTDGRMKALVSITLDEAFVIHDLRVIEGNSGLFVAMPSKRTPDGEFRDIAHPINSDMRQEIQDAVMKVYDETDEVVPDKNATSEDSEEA
Briefly: EMSA. Particulars: 50 mM Tris-HCl, 300 mM NaCl, pH 8.0, shift abolished by unlabeled psasC, EMSA: 50 mM Tris-HCl, pH 8.0, 25 C, 30 min, 4% native PAGE in 1x TBE, recombinant protein, label: biotin (reverse primer), probe letters rebuilt from the primers and the genome.

The exact form of at least one protein or probe is not confirmed. Protein sequences can lack the tags named with them.

Consider “TTTCTTTAACAAATTCATTTCATTTTCCTCCTGGTTGTCTGTTCTCTGCTGTGTTGTTTAGAATTATGCTAAAAATATACGCTCTCTCATATTATGTTTATAGCTATATTATTTTGTACAATATTTTAAGTTCACTCAATTTTATCATCATCATTTTATAAAATAAAGTTTTATTTTATTACAATTTAGTTTCCGTTTTGTAATTAAAATCTTAATAAAACATAACAAGAACGCTTTAGATTGTTTTGTAACAGAAAGTAATTCATACCAAAAAACACCAAGCAACCGAAACGTTACTTGGTGTCATTACAAATGTAATATTATTTTAAATTATGTCACTACTTTAAATACTTTTTATTTCCAAACCTTCATCGCCCCATGCGTGCATGCCGCCTTCGACATTTACGGCATCAATGCCATTTGCCTCTAAATATTCTACAACTTTAGCGCTTCGAACTCCACCAGCACATACAATATAATATATTTCATTTTTATTAAATGAATTTAAATTATCCGGA (double strand) [psasC promoter probe]”, for which the binding result is “binds”.

These data come from article PMC7376557.
